{"source": "PubChem BioAssay AID504761 (Drosophila RNAi Screening Center, 2011)", "screen": "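Fly genes whose silencing reduces dengue virus type 2 infection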 (primary screen)", "system": "D.Mel-2 cells from Drosophila", "reagents": "long dsRNA against Drosophila genes", "challenge": "infection with dengue virus type 2; dose and infection time not stated", "read-out": "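Per well on two replicate plates, imaging gave the percent of cells positive for viral envelope protein, ranked by infection, and a nuclear count of cells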", "reading the numbers": "infection score: higher = more virus-infected cells; cell count: higher = more cells in the well", "active means": "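Low infection ranks in the two replicates (chance level up to 0.065) followed by a retest with a 1.5-fold or larger significant decrease, p below 0.05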", "meaning of the calls": "active = confirmed: knock-down lowers infection; inactive = not picked or not confirmed", "note": "The deposit covers about 22,000 reagents; shown is a random part of those that have a named target and a result. In the full data, 116 (0.52%) are marked active. 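Calls depend on retest data that are not deposited; infection was ranked per plate without normalising between plates; the unit of the infection score is not given.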 Raw values vary from plate to plate and are shown uncorrected. Not all columns of the deposit are shown. The record does not give: the amount of reagent, the time to read-out."}
{"predicted target": "CG17919", "dsRNA": "DRSC12571", "cell count, replicate 1": 404, "Outcome": "inactive"}
{"predicted target": "CG17919", "dsRNA": "DRSC27860", "infection score, replicate 1": 16.1, "cell count, replicate 1": 6263, "Outcome": "inactive"}
{"predicted target": "CG31819", "dsRNA": "DRSC01532", "infection score, replicate 1": 2.19, "cell count, replicate 1": 6152, "Outcome": "inactive"}
{"predicted target": "CG31819", "dsRNA": "DRSC27735", "infection score, replicate 1": 27.7, "cell count, replicate 1": 4833, "Outcome": "inactive"}
{"predicted target": "CG32091", "dsRNA": "DRSC10820", "infection score, replicate 1": 0.26, "cell count, replicate 1": 3120, "Outcome": "inactive"}
{"predicted target": "Ufd4 (Ubiquitin fusion-degradation 4-like)", "dsRNA": "DRSC02871", "infection score, replicate 1": 3.01, "cell count, replicate 1": 6440, "Outcome": "inactive"}
{"predicted target": "Cpr72Eb (Cuticular protein 72Eb)", "dsRNA": "DRSC09870", "infection score, replicate 1": 1.34, "cell count, replicate 1": 6172, "Outcome": "inactive"}
{"predicted target": "CG32551", "dsRNA": "DRSC19259", "infection score, replicate 1": 0.19, "cell count, replicate 1": 6294, "Outcome": "inactive"}
{"predicted target": "nebu (nebulosa)", "dsRNA": "DRSC09807", "infection score, replicate 1": 8.75, "cell count, replicate 1": 5517, "Outcome": "inactive"}
{"predicted target": "nebu (nebulosa)", "dsRNA": "DRSC09808", "infection score, replicate 1": 1.33, "cell count, replicate 1": 5426, "Outcome": "inactive"}
{"predicted target": "AlaRS-m (Alanyl-tRNA synthetase, mitochondrial)", "dsRNA": "DRSC09660", "infection score, replicate 1": 10.2, "cell count, replicate 1": 6491, "Outcome": "inactive"}
{"predicted target": "AlaRS-m (Alanyl-tRNA synthetase, mitochondrial)", "dsRNA": "DRSC28250", "infection score, replicate 1": 2.44, "cell count, replicate 1": 532, "Outcome": "inactive"}
{"predicted target": "brat (brain tumor)", "dsRNA": "DRSC03497", "infection score, replicate 1": 9.32, "cell count, replicate 1": 5978, "Outcome": "inactive"}
{"predicted target": "CG8814", "dsRNA": "DRSC00707", "infection score, replicate 1": 4.52, "cell count, replicate 1": 6149, "Outcome": "inactive"}
{"predicted target": "CG8814", "dsRNA": "DRSC25994", "infection score, replicate 1": 6.17, "cell count, replicate 1": 6791, "Outcome": "inactive"}
{"predicted target": "TotZ (Turandot Z)", "dsRNA": "DRSC13450", "infection score, replicate 1": 4.08, "cell count, replicate 1": 6079, "Outcome": "inactive"}
{"predicted target": "RpS10a (Ribosomal protein S10a)", "dsRNA": "DRSC14161", "infection score, replicate 1": 7.35, "cell count, replicate 1": 6732, "Outcome": "inactive"}
{"predicted target": "RpS10a (Ribosomal protein S10a)", "dsRNA": "DRSC26061", "infection score, replicate 1": 5.44, "cell count, replicate 1": 5427, "Outcome": "inactive"}
{"predicted target": "Lim3", "dsRNA": "DRSC23034", "infection score, replicate 1": 4.89, "cell count, replicate 1": 6120, "Outcome": "inactive"}
{"predicted target": "Lim3", "dsRNA": "DRSC28555", "infection score, replicate 1": 6.94, "cell count, replicate 1": 2377, "Outcome": "inactive"}
{"predicted target": "CG14314", "dsRNA": "DRSC14793", "infection score, replicate 1": 2.55, "cell count, replicate 1": 6384, "Outcome": "inactive"}
